Data from PubChem BioAssay (NCATS).
This is a selection; strong and weak results do not stand in their true shares. Records with an inconclusive call do not appear. Active and inactive are the calls of the source. The call rests on the fitted dose curve; in most records, active means well fitted curve in the direction sought with a large enough effect; inconclusive means small, poorly fitted or top-dose-only effect, or another doubt; inactive means no such curve, though single readings can be large; an effect the other way counts as inactive or inconclusive.

Protein sequences, listed by entry. Tags and fused reporters are not part of them. Lines headed by an entry give the natural chain unless they say otherwise; changes in a name come on top.
UniProt O15648: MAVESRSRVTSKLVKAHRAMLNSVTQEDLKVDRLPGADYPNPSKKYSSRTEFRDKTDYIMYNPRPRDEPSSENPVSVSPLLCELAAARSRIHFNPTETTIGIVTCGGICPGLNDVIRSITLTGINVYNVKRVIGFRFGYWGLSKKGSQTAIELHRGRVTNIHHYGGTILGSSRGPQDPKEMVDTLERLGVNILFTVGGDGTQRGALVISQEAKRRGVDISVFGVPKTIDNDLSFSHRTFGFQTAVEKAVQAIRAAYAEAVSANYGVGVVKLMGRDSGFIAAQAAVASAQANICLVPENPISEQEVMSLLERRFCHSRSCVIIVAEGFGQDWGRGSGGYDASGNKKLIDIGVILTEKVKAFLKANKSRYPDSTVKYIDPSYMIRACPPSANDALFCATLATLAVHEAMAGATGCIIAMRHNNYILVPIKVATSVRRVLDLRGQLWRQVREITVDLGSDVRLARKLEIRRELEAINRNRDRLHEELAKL

Experiments:
[1] = biological target: ATP-dependent 6-phosphofructokinase (Trypanosoma brucei brucei) (UniProt O15648); assay: qHTS Assay to Find Inhibitors of T. brucei phosphofructokinase: hit validation (AID 492961); further: on the % scale 0 is the no-effect control and ±100 the full control effect; conditions: T. brucei PFK, ADP-Glo luminescence; at 51.4 µM (top of the series)
Summary of the method: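 Luminescence from ADP-Glo reports ADP generated as T. brucei PFK (1.25 nM) phosphorylates 0.5 mM fructose-6-phosphate using 0.1 mM ATP. Reactions ran 45 min at room temperature, pH 8.0.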

[2] = qHTS profiling for inhibitors of Plasmodium falciparum proliferation (AID 504749);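 further: 0% = DMSO vehicle and full inhibition = artemisinin control; nearly all actives have a fitted effect of over 60% in size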; conditions: P. falciparum in erythrocytes, SYBR Green DNA, 72 h, at 28.7 µM (top of the series)
Summary of the method: (§1)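 P. falciparum-infected erythrocytes (0.3% parasitemia, 2.5% hematocrit) incubated with compound 72 h at 37 C, 5% CO2. Parasite DNA detected by SYBR Green after lysis, overnight at room temperature; normalised to 0.29 uM artemisinin and DMSO.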

3D7 = assay: as above; conditions: P. falciparum in erythrocytes, SYBR Green DNA, 72 h; at 28.7 µM (top of the series)
Summary of the method: as §1

AA1029 = assay: as above; conditions: P. falciparum in erythrocytes, SYBR Green DNA, 72 h; at 28.7 µM (top of the series)
Summary of the method: as §1

AS120 = assay: as above; conditions: P. falciparum in erythrocytes, SYBR Green DNA, 72 h; at 28.7 µM (top of the series)
Summary of the method: as §1

ATS189 = assay: as above; conditions: P. falciparum in erythrocytes, SYBR Green DNA, 72 h; at 28.7 µM (top of the series)
Summary of the method: as §1

ATS95 = assay: as above; conditions: P. falciparum in erythrocytes, SYBR Green DNA, 72 h; at 28.7 µM (top of the series)
Summary of the method: as §1

C2A = assay: as above; conditions: P. falciparum in erythrocytes, SYBR Green DNA, 72 h; at 28.7 µM (top of the series)
Summary of the method: as §1

CP185 = assay: as above; conditions: P. falciparum in erythrocytes, SYBR Green DNA, 72 h; at 28.7 µM (top of the series)
Summary of the method: as §1

CP191 = assay: as above; conditions: P. falciparum in erythrocytes, SYBR Green DNA, 72 h; at 28.7 µM (top of the series)
Summary of the method: as §1

CP192 = assay: as above; conditions: P. falciparum in erythrocytes, SYBR Green DNA, 72 h; at 28.7 µM (top of the series)
Summary of the method: as §1

CP194 = assay: as above; conditions: P. falciparum in erythrocytes, SYBR Green DNA, 72 h; at 28.7 µM (top of the series)
Summary of the method: as §1

CP201 = assay: as above; conditions: P. falciparum in erythrocytes, SYBR Green DNA, 72 h; at 28.7 µM (top of the series)
Summary of the method: as §1

CP203 = assay: as above; conditions: P. falciparum in erythrocytes, SYBR Green DNA, 72 h; at 28.7 µM (top of the series)
Summary of the method: as §1

CP211 = assay: as above; conditions: P. falciparum in erythrocytes, SYBR Green DNA, 72 h; at 28.7 µM (top of the series)
Summary of the method: as §1

CP215 = assay: as above; conditions: P. falciparum in erythrocytes, SYBR Green DNA, 72 h; at 28.7 µM (top of the series)
Summary of the method: as §1

CP217 = assay: as above; conditions: P. falciparum in erythrocytes, SYBR Green DNA, 72 h; at 28.7 µM (top of the series)
Summary of the method: as §1

CP237 = assay: as above; conditions: P. falciparum in erythrocytes, SYBR Green DNA, 72 h; at 28.7 µM (top of the series)
Summary of the method: as §1

CP238 = assay: as above; conditions: P. falciparum in erythrocytes, SYBR Green DNA, 72 h; at 28.7 µM (top of the series)
Summary of the method: as §1

CP247 = assay: as above; conditions: P. falciparum in erythrocytes, SYBR Green DNA, 72 h; at 28.7 µM (top of the series)
Summary of the method: as §1

CP250 = assay: as above; conditions: P. falciparum in erythrocytes, SYBR Green DNA, 72 h; at 28.7 µM (top of the series)
Summary of the method: as §1

CP252 = assay: as above; conditions: P. falciparum in erythrocytes, SYBR Green DNA, 72 h; at 28.7 µM (top of the series)
Summary of the method: as §1

CP256 = assay: as above; conditions: P. falciparum in erythrocytes, SYBR Green DNA, 72 h; at 28.7 µM (top of the series)
Summary of the method: as §1

CP260 = assay: as above; conditions: P. falciparum in erythrocytes, SYBR Green DNA, 72 h; at 28.7 µM (top of the series)
Summary of the method: as §1

CP262 = assay: as above; conditions: P. falciparum in erythrocytes, SYBR Green DNA, 72 h; at 28.7 µM (top of the series)
Summary of the method: as §1

CP265 = assay: as above; conditions: P. falciparum in erythrocytes, SYBR Green DNA, 72 h; at 28.7 µM (top of the series)
Summary of the method: as §1

CP266 = assay: as above; conditions: P. falciparum in erythrocytes, SYBR Green DNA, 72 h; at 28.7 µM (top of the series)
Summary of the method: as §1

CP268 = assay: as above; conditions: P. falciparum in erythrocytes, SYBR Green DNA, 72 h; at 28.7 µM (top of the series)
Summary of the method: as §1

CP269 = assay: as above; conditions: P. falciparum in erythrocytes, SYBR Green DNA, 72 h; at 28.7 µM (top of the series)
Summary of the method: as §1

O=C(OC1CN2CCC1CC2)c1ccccc1 (stereo not given)
inactive: activity change, negative = inhibition [1] -1.8% | activity, negative = inhibition ([2]; parasite line A) -0.149% | activity, negative = inhibition ([2]; parasite line B) 3.2% | activity, negative = inhibition (3D7) 8.02% | activity, negative = inhibition (AA1029) 2.59% | activity, negative = inhibition (AS120) 6.18% | activity, negative = inhibition (ATS189) -11.1% | activity, negative = inhibition (ATS95) -4.39% | activity, negative = inhibition (C2A) -6.12% | activity, negative = inhibition (CP185) -1.12% | activity, negative = inhibition (CP191) 5.09% | activity, negative = inhibition (CP192) 3.72% | activity, negative = inhibition (CP194) -0.119% | activity, negative = inhibition (CP201) -13.3% | activity, negative = inhibition (CP203) -0.123% | activity, negative = inhibition (CP211) 10.4% | activity, negative = inhibition (CP215) 4.58% | activity, negative = inhibition (CP217) 0.243% | activity, negative = inhibition (CP237) -9.41% | activity, negative = inhibition (CP238) 2.14% | activity, negative = inhibition (CP247) 5% | activity, negative = inhibition (CP250) 4.25% | activity, negative = inhibition (CP252) -10.2% | activity, negative = inhibition (CP256) 3.53% | activity, negative = inhibition (CP260) -2.21% | activity, negative = inhibition (CP262) -1.46% | activity, negative = inhibition (CP265) 1.19% | activity, negative = inhibition (CP266) 10.1% | activity, negative = inhibition (CP268) -4.26% | activity, negative = inhibition (CP269) 2.82%
